Measured values from several laboratories, pooled; numbers as filed in NIAID ChemDB.

All rows: growth or infection tests; species: Punta Toro virus; read by: cytopathic effect; endpoint: EC50

Rows are shuffled and stem from different studies. An empty or dashed field is not shown. ECn is the concentration giving n% inhibition of infection, replication or growth.

structure	cells	strain or isolate	value
CON=C[C@H]1O[C@@H](n2cnc3c(N)ncnc32)[C@H](O)[C@@H]1O	VERO	-	>100 µg/mL
CN=C(N)c1ncn([C@@H]2O[C@H](CO)[C@@H](O)[C@H]2O)n1	VERO	Adames	250 µg/mL
O=C(Nn1c(-c2cn(-c3ccccc3)nc2-c2ccccc2)n[nH]c1=S)c1ccccc1	VERO	-	>16 µg/mL
CNC(=O)c1ncn([C@@H]2O[C@H](CO)[C@@H](O)[C@H]2O)n1	VERO	Adames	>320 µg/mL
CC1(C)[C@@H](CO)CC[C@@]1(C)Cn1nnc2c(Cl)ncnc21	VERO	-	>400 µg/mL
Nn1c(-c2cn(-c3ccccc3)nc2-c2ccccc2)n[nH]c1=S	VERO	-	>16 µg/mL
CC(=O)OC[C@H]1O[C@@H](n2ncc(=O)[nH]c2=O)[C@H](OC(C)=O)[C@@H]1OC(C)=O	VERO	Adames	1.77 µg/mL
CC(C)CS[C@@H]1C[C@H](n2cnc3c(N)ncnc32)[C@@H](O)[C@H]1O	HeLa	-	>80 µg/mL
NC(=O)CSc1ncnc2c1cnn2COCC(O)CO	VERO	-	>400 µg/mL
CCc1nc(-n2c(-c3ccccc3)nc3ccc(Br)cc3c2=O)nc(N)c1-c1ccc(Cl)cc1	E6SM	-	>80 µg/mL
CC(=O)Nn1c(-c2cn(-c3ccccc3)nc2-c2ccccc2)n[nH]c1=S	VERO	-	>80 µg/mL
OC[C@H]1O[C@@H](c2cc(/C=C/Br)c(F)cc2F)C[C@@H]1O	VERO	-	>16 µg/mL
Nc1ncnc2c1ncn2[C@H]1OC[C@@H](CO)C1O	VERO	-	>80 µg/mL
NC(=O)c1[nH]nc([C@@H]2O[C@H](CO)[C@@H](O)[C@H]2O)c1O	VERO	Adames	0.47 µg/mL
CC1(C)[C@@H](CCO)C[C@H]1n1nnc2c(=O)[nH]cnc21	VERO	-	>100 µg/mL
CC1(CO)CCC(Cc2nc3ncnc(N)c3[nH]2)C1(C)C	VERO	-	>10 µg/mL
CC1(C)[C@@H](CCO)C[C@H]1n1cnc2c(N)nc(N)nc21	VERO	-	>400 µg/mL
CCC(Sc1ncnc2c1cnn2COCC(O)CO)C(N)=O	VERO	-	>400 µg/mL
CCOC(=O)C1Sc2nnc(-c3cn(-c4ccccc4)nc3-c3ccccc3)n2NC1=O	VERO	-	>16 µg/mL
CC1(CO)CCC(Cn2nnc3c(Cl)ncnc32)C1(C)C	VERO	-	>40 µg/mL
CC1(CO)CCC(Cn2cnc3c(=O)[nH]c(N)nc32)C1(C)C	VERO	-	>400 µg/mL
O=c1cnn([C@@H]2O[C@H](COP(=O)(O)O)[C@@H](O)[C@H]2O)c(=O)[nH]1	VERO	Adames	1.82 µg/mL
COc1cc(Cc2cnc(-n3c(-c4ccccc4)nc4ccc(Br)cc4c3=O)nc2N)cc(OC)c1OC	E6SM	-	>80 µg/mL
Cc1cn([C@H]2OC[C@@H](CO)C2F)c(=O)[nH]c1=O	VERO	-	>80 µg/mL
CC1(C)[C@@H](CO)CC[C@@]1(C)Cn1cnc2c(=O)[nH]cnc21	VERO	-	>400 µg/mL
NC1=CC(c2ccccc2)=Nn2c(nnc2-c2cn(-c3ccccc3)nc2-c2ccccc2)S1	VERO	-	>16 µg/mL
NC(=O)CSc1ncnc2c1cnn2CCCCO	VERO	-	>400 µg/mL
c1ccc(C2=Nn3c(nnc3-c3cn(-c4ccccc4)nc3-c3ccccc3)SC2)cc1	VERO	-	>16 µg/mL
CCCCCCCCN=C(N)c1ncn([C@@H]2O[C@H](CO)[C@@H](O)[C@H]2O)n1	VERO	Adames	>1000 µg/mL
CC1(CO)CCC(Cn2cnc3c(=O)[nH]cnc32)C1(C)C	VERO	-	>200 µg/mL
CCOP(=O)(NC(C)C(=O)OC)OC[C@H]1O[C@@H](n2ncc(=O)[nH]c2=O)C(O)C1O	VERO	Adames	260 µg/mL
CC1(CO)CCC(Cn2cnc3c(Cl)nc(N)nc32)C1(C)C	VERO	-	>200 µg/mL
Nn1c(SCC(=O)O)nnc1-c1cn(-c2ccccc2)nc1-c1ccccc1	VERO	-	>80 µg/mL
OC[C@H]1O[C@@H](c2cc(Cl)c(F)cc2F)C[C@@H]1O	VERO	-	>80 µg/mL
CC1(CO)CCC(Cn2nnc3c(=O)[nH]c(N)nc32)C1(C)C	VERO	-	>200 µg/mL
Nc1ncnc2c1ncn2[C@@H]1O[C@H](C=NO)[C@@H](O)[C@H]1O	VERO	-	>0.4 µg/mL
CC1(C)[C@@H](CCO)C[C@H]1n1nnc2c(Cl)nc(N)nc21	VERO	-	>200 µg/mL
Cc1cn([C@@H]2OC[C@H](CO)[C@H]2N=[N+]=[N-])c(=O)[nH]c1=O	VERO	-	>80 µg/mL
CC1(C)[C@@H](CO)CC[C@@]1(C)Cn1nnc2c(N)ncnc21	VERO	-	>400 µg/mL
CCc1nc(-n2c(C)nc3ccc(Br)cc3c2=O)nc(N)c1-c1ccc(Cl)cc1	E6SM	-	>80 µg/mL

3 of the rows above, restated:

structure | cells | strain or isolate | value
CC1(CO)CCC(Cn2nnc3c(=O)[nH]c(N)nc32)C1(C)C | VERO | - | >200 µg/mL
Nn1c(SCC(=O)O)nnc1-c1cn(-c2ccccc2)nc1-c1ccccc1 | VERO | - | >80 µg/mL
CC1(C)[C@@H](CCO)C[C@H]1n1cnc2c(N)nc(N)nc21 | VERO | - | >400 µg/mL